Source: patent US20260069689A1, “ANTI-SARS-COV-2-SPIKE GLYCOPROTEIN ANTIBODIES AND ANTIGEN-BINDING FRAGMENTS” (Regeneron, published 2026)

Legend:
[1] = molecular target: Omicron variant SARS-CoV-2 spike glycoprotein (SEQ ID NO: 1073) (SARS-CoV-2); experiment: cell-based or functional assay
[2] = molecular target: SARS-CoV-2 D614G spike protein variant (SARS-CoV-2); experiment: cell-based or functional assay
[3] = molecular target: T1, SARS-COV-2 RBD-MMH (SARS-COV-2 RBD extracellular domain with C-terminal myc-myc-hexahistidine tag) (SARS-CoV-2); experiment: SPR 37C, mAb captured, 90 nM RBD-MMH, dissociation pH 6.0
[4] = molecular target: SARS-CoV-2 RBD.mmh (Spike amino acids Arg319-Phe541 with C-terminal myc-myc-6-Histidine tag) (SARS-CoV-2, UniProt P0DTC2 319-541)
[5] = molecular target: T1, SARS-COV-2 RBD-MMH (SARS-COV-2 RBD …); experiment: SPR 37C, mAb captured, 90 nM RBD-MMH, dissociation pH 7.4

Binder | IC50 FC (fold change relative to D614G control) [1] [fold] | log10 FC of IC50 relative to D614G control [1] [log10 fold] | IC50 (pseudoparticle neutralization) [2] [pM] | IC50 (pseudoparticle neutralization) [1] [pM] | RBD.mmh Bound at pH 7.4 (RU) [3] [RU] | % Blocking at 100 nM mAb concentration [4] [%] | RBD.mmh Bound at pH 7.4 (RU) [5] [RU]
mAb14284 (antibody, V domains shown) VH: QITLKESGPTLVKPTQTLTLTCTFSGFSFSTSGVGVGWIRQPPGKTLEWLALIYWDDDKRYSPSLKSRLTITKDTSKNQVVLTMTNMDPVDTATYFCAHHGIPTIFGYWGQGALVTVSS VL: QSALTQPASVSGSPGQSITISCTGTSSDLGVFNYVSWYQQHPGKAPKLMIYEVTNRPSGVSNRFSGSKSGNTASLTISGLQAEDEADYYCSSYTTSSTVFGGGTKLTVLG [mAb14284, listing 1 of 2 here] | 1.25 | 0 | 8.25 |  |  |  | 
mAb14235 (antibody, V domains shown) VH: QITLKESGPTLVKPTQTLTLTCTFSGFSLNTGGVGVGWIRQPPGNALEWLALIYWDDDKRYNPSLKTRLTISKDTSKNQVVLTMTNMDPVDTATYFCAHLTIAVIVDFWGQGTLVTVSS VL: QSALTQPASVSGSPGQSITISCTATSSDVGTYNYVSWFQHHPGKAPKLMIYEVTNRPSGVSNRFSGSKSGNTASLTISGLQAEDEADYYCSSYTTTSIVFGGGTKLTVLG | 1.81 | 0.26 | 3.79 | 6.84 |  |  | 
mAb14284 (antibody, V domains shown) VH: QITLKESGPTLVKPTQTLTLTCTFSGFSFSTSGVGVGWIRQPPGKTLEWLALIYWDDDKRYSPSLKSRLTITKDTSKNQVVLTMTNMDPVDTATYFCAHHGIPTIFGYWGQGALVTVSS VL: QSALTQPASVSGSPGQSITISCTGTSSDLGVFNYVSWYQQHPGKAPKLMIYEVTNRPSGVSNRFSGSKSGNTASLTISGLQAEDEADYYCSSYTTSSTVFGGGTKLTVLG [mAb14284, listing 2 of 2 here] |  |  |  |  | 144 | 98 | 147
mAb14313 (antibody, V domains shown) VH: EVQLVESGGGLVQPGRSLRLSCVASGFTFDDSAMHWVRQPPGKGLEWVSGISWNSGIIGYAESVKGRFIISRDNAKNSLFLHMRGLRPEDTAVYYCARDRLELSYYYYGMDVWGQGTTVTVSS VL: QSVLTQPPSASGTPGQRVTISCSGSSSNIGSNTVNWYQQFPGTAPRLLIYSNDQRPSGIPDRFSGSKSGTSASLAISGLQSEDEADYYCSTWDDSLNGAVFGGGTQLTVLG |  |  |  |  | 97.1 | 63 | 94.2
mAb15150 (antibody, V domains shown) VH: EVQLVETGGGLIQPGGSLRLSCAAPGFIVSSNYMSWVRQAPGKGLEWVSLLYPGGSTYYADSVKGRFTISRDNSKNTLYLQMNSLRADDTAVYYCARVLPIVEDHFDYWGQGTLVTVSS VL: DIQLTQSPSFLSASVGDRVTITCRASQGMSSYLAWYQKKPGKAPKLLIYGATILQSGVPSRFSGSGSGTEFTLTISSLQPEDFATYYCQQLNSDPLYMYTFGQGTKLEIKR |  | 2.59 | 0.852 | 1.23 |  |  | 
mAb14294 (antibody, V domains shown) VH: EVQLVESGGGLVQPGGSLRLSCAASGFTFSNHWMDWVRQAPGKGLVWVSRINSDGSSTDYADSVRGRFTMSRDNAKNTLYLQMSSLRAEDTAVYYCAREGMIFGAVIIPGWYFDLWGRGALVTVSS VL: EIVLTQSPGTLSLSPGERATLSCRASQSVSSSQLAWYQQKPGQAPRLLIYGASSRATGIPDRFSGSGSGTDFTLTISRLEPEDFAVYYCQQYDSFGQGTKLEIKR [mAb14294, listing 1 of 2 here] | 1420 | 3.15 | 5 | 6.67 |  |  | 
mAb14294 (antibody, V domains shown) VH: EVQLVESGGGLVQPGGSLRLSCAASGFTFSNHWMDWVRQAPGKGLVWVSRINSDGSSTDYADSVRGRFTMSRDNAKNTLYLQMSSLRAEDTAVYYCAREGMIFGAVIIPGWYFDLWGRGALVTVSS VL: EIVLTQSPGTLSLSPGERATLSCRASQSVSSSQLAWYQQKPGQAPRLLIYGASSRATGIPDRFSGSGSGTDFTLTISRLEPEDFAVYYCQQYDSFGQGTKLEIKR [mAb14294, listing 2 of 2 here] |  |  |  |  | 91.1 | 94 | 83.2
mAb14312 (antibody) heavy: not shown light: QSVLTQPPSVSGAPGQRVTISCTGSSSNIGAGDDVHWYQQLPGTAPKLLIYGNSNRPSGVPDRFSGSKSGTSASLAITGLQAEDEADYYCQSYDSSLSGSVVFGGGTKLTVLGQPKAAPSVTLFPPSSEELQANKATLVCLISDFYPGAVTVAWKADSSPVKAGVETTTPSKQSNNKYAASSYLSLTPEQWKSHRSYSCQVTHEGSTVEKTVAPTECS |  | 3.72 | 1 | 0.794 |  |  | 
mAb15157 (antibody, V domains shown) VH: EVQLVESGGALVQPGGSLRLSCAASGFPFTIYAMTWVRQAPGKGLEWVSVITGSGDSTYYADSVKGRFTISRDNSKNTLYLQMNSLRAEDTAVYYCVKTGEGFFYYYYGMDVWGQGTTVTVSS VL: QSVLTQPPSVSAAPGQKVTISCSGSSSNIGNSYISWYQQLPGTAPKLLIYVNNKRPSGIPDRFSGSKSGTSATLGITGLQTGDEADYYCGTWDSSLSAGVFGSGTKVTVLG |  | 4.3 | 1.01 | 1.15 |  |  | 
mAb14289 (antibody, V domains shown) VH: QVQLVQSGPEVKKPGASVKVSCKASGYTFTSYAISWVRQAPGQGLEWMGWISAYNGNTNYAQKLQGRVTMTTDTFTSTAYMELRSLRSDDTAVYYCAVPADHITFDYWGQGTLVTVSS VL: EIVLTQSPGTLSLSPGERATLSCRASQSVSSYLAWYQQKPGQAPRLLIHGASSRATGIPDRFSGSGSGTDFTLTISRLEPEDFAVYYCQQYGSSFLTFGGGTKVEIKR |  |  |  |  | 84 | 98 | 86.1
mAb15156 (antibody) heavy: not shown light: QSVLTQPPSASGTPGQRVTISCSGSRSNIGINTVNWYQQFPGTALNLLIFSDNQRPSGVPDRFSGSKSGTSASLAISGLQSEDEADYYCAAWDDSLNGPDWVFGGGTKLTVLGQPKAAPSVTLFPPSSEELQANKATLVCLISDFYPGAVTVAWKADSSPVKAGVETTTPSKQSNNKYAASSYLSLTPEQWKSHRSYSCQVTHEGSTVEKTVAPTECS |  | 1.87 | 0.462 | 0.496 |  |  | 
mAb14312 (antibody, V domains shown) VH: EVQLVESGGGLVQPGGSLRLSCAASGFTVSRSYMTWVRQAPGKGLEWVSVIFTGGRTDHADSVKGRFTISRHNSKNTLYLQMNSLRTEDTAVYYCARVAIVGATGAFDIWGQGTMVTVSS VL: QSVLTQPPSVSGAPGQRVTISCTGSSSNIGAGDDVHWYQQLPGTAPKLLIYGNSNRPSGVPDRFSGSKSGTSASLAITGLQAEDEADYYCQSYDSSLSGSVVFGGGTKLTVLG |  |  |  |  | 94.8 | 98 | 95.2
mAb14287 (antibody, V domains shown) VH: QVQLVQSGAEVKKPGSSVKVSCKASGGTFSNNAISWVRQAPGQGLEWMGKIIPILGIGGDAQKFQGRFTITADKSTSTAYMELSSLRSEDTAVYYCANSGDSRPHAFDIWGQGTMVTVSS VL: QSALTQPASVSGSPGQSITISCTGTSSDVGSYNLVSWYQQHPGKAPKLMIYEVSKRPSGVSNRFSGSKSGNTASLTISGLQAEDEADYYCSSYAGSRREVFGGGTKLTVLG | 0.2 | -0.69 | 2.18 | 4.42 |  |  | 
mAb14285 (antibody, V domains shown) VH: QVQLVQSGAEVKKPGASVKVSCKASGYTFTGYFIHWVRQAPGQGLEWMGWISPISGGTNYAQKFQGRVTVTRDTSITTAYMELSRLTSDDTAVYHCAREGGTWKGDFDYWGQGTLVTVSS VL: QSALTQPASVSGSPGQSITISCTGTSSDVESYNLVSWYQQHPGKAPKLMIYEGSKRPSGVSNRFSGSKSGNTASLTISGLQAEDEADYYCSSYAGSSTWVFGGGTKLTVLG |  |  |  |  | 77.1 | 96 | 64.2
mAb14286 (antibody, V domains shown) VH: QVQLVQSGAEVKKPGASVKVSCKASGYTFTDYFIHWVRQAPGQGLEWMGWINPTSGGTNYAQKFRGRVTMTRDTSISTAYVELSRLRSDDTALYYCARDLPFYSDTKQFDYWGQGTLVTVSS VL: QSALTQPASVSGYPGQSITISCTGTSSDVGGYNYVSWYQQHPGKAPKLMIFDVSNRPSGVSNRFSGSKSGNTASLTFSGLQAEDEADYYCSSYTSSSTLVFGGGTKLTVLG |  |  |  |  | 87.2 | 94 | 84.3
mAb14292 (antibody, V domains shown) VH: EVQLVESGGGLVQPGGSLRLSCVASGFAFSTYEMNWVRQAPGKGLEWVSYISSSGSTIYYADSVKGRLTISRDNVKNSLYLQMNSLRVEDTAIYYCARDAIRNNDILTDPATFDPWGQGTLVTVSS VL: not shown |  |  |  |  | 74 | 95 | 73.4
mAb14315 (antibody, V domains shown) VH: QVQLVQSGAEVKKPGSSVKVSCKASGDTFSTYAINWVRQAPGQGLEWMGRFIHIFGTANYAQKFQGRVTITADESTSTAYMELRSLRSEDTAVYYCARDGVDYGDYRPDYWGQGTLVTVSS VL: EIVLTQSPGTLSLSPGERATLSCRASQSVSSNYLAWYQQKPGQAPRLLIYGASSRATGIPERFSGSGSGTDFTLTISRLEPEDFAVYYCQQYGSSLYTFGQGTKLEIKR |  |  |  |  | 82.5 | 61 | 83.3
